Experimental data published in the supplement of paper PMC9931576.
Human monoclonal antibodies against the spike receptor-binding domain (heavy:light variable regions). IC50 against pseudoviruses bearing the spike of naturally observed variants; lower = stronger; >10 µg/ml means not reached at the top dose. No active / inactive call. The stated detection limit is 0.0005 µg/ml; values near or below 0.001 µg/ml lie at the floor of the assay.

What was measured:
Assay in all cases: pseudovirus neutralization IC50; higher = weaker neutralization
[1] = target: SARS-CoV-2 Omicron BA.1 spike pseudovirus
Description: (§1)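 Single-round VSV luciferase pseudovirus mixed with antibody dilutions for 1 h and put on Huh-7 cells for about a day; IC50 from the dose curve.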

[2] = target: SARS-CoV-2 Omicron BA.2 spike pseudovirus
Description: as §1

[3] = target: SARS-CoV-2 Omicron BA.2.75 spike pseudovirus
Description: as §1

[4] = target: SARS-CoV-2 Omicron BA.5 spike pseudovirus
Description: as §1

[5] = target: SARS-CoV-2 Omicron BQ.1.1 spike pseudovirus
Description: as §1

[6] = target: SARS-CoV-2 Omicron XBB spike pseudovirus
Description: as §1

[7] = target: SARS-CoV-2 early D614G spike pseudovirus
Description: as §1

B1: BD57-0356 (protein)
chain 1: QVQLVQSGAEVKKPGSSVKVSCKISGGIFVNYAVSWVRQAPGQGLQWVGGLIPILRTTDYTQKFQGRVTITADDSMTTTYMELSSLTSEDTAVYYCATGVRYCSGTTCYTAYLQDWGQGTPVTVSS
chain 2: EIVLTQSPGTLSLSPGERATLSCRASQSLSNSYLAWYQQKPGRAPRLLLYGTSTRAPGIPDRFSGSGSGTDFTLTISGLEPEDFAVYYCQQYGSSPRTFGQGTAVEFK
With B1 the “pseudovirus neutralization IC50” value [1] was 0.0621 µg/mL, the “pseudovirus neutralization IC50” value [2] was 0.00378 µg/mL and the “pseudovirus neutralization IC50” value [3] was 0.00237 µg/mL. The “pseudovirus neutralization IC50” value [4] was 0.646 µg/mL, the “pseudovirus neutralization IC50” value [5] was > 10 µg/mL and the “pseudovirus neutralization IC50” value [6] was > 10 µg/mL. For the same binder, the “pseudovirus neutralization IC50” value [7] was 0.000868 µg/mL.

B2: BD57-0385 (protein)
chain 1: QMQLVQSGPEMKKPGTSMKVSCKASVFTFDTSSVQWVRQARGQRLEWIGWIVLGSGYTDYAQEFQERVTITRDMSTSTVYMELNRLRSEDTAVYYCAAPYCNRTTCRDGFDLWGQGTMVTVSS
chain 2: EIVLTQSPGTLSLSPGKRATLSCRARQSVSRSLLAWYQQKPGQAPRLLIYGASSRATGIPDRFSGSGSGTDFTLTISRLEPEDFAVYYCQQYGTSPWTFGQGTKVEIK
With B2 the “pseudovirus neutralization IC50” value [1] was 0.00626 µg/mL, the “pseudovirus neutralization IC50” value [2] was 0.00429 µg/mL and the “pseudovirus neutralization IC50” value [3] was 0.00645 µg/mL. The “pseudovirus neutralization IC50” value [4] was 9.71 µg/mL, the “pseudovirus neutralization IC50” value [5] was > 10 µg/mL and the “pseudovirus neutralization IC50” value [6] was > 10 µg/mL. The “pseudovirus neutralization IC50” value [7] was 0.00357 µg/mL.

B3: BG7-15 (protein)
chain 1: QVQLVQSGAEVKKPGASVKVSCKASGYTFTSYAISWVRQAPGQGLEWMGWVSAYNGNTNYAQKLQGRVTMTTDTSTNTAYMELRSLRSDDTAIYYCAIPYSSVTFDCWGQGTLVTVSS
chain 2: EIVLTQSPGTLSLSPGERATLSCRASQSVSGTFLAWYQQKPGQAPRLLISGASSRATGIPDRFSGSGSGTDFTLTISRLEPEDFAVYYCQQYGSSRPTFGQGTKLEIK
In the case of B3, the “pseudovirus neutralization IC50” value [1] is reported as > 10 µg/mL, the “pseudovirus neutralization IC50” value [2] is reported as 0.543 µg/mL and the “pseudovirus neutralization IC50” value [3] is reported as > 10 µg/mL. For the same binder, the “pseudovirus neutralization IC50” value [4] was 0.889 µg/mL, the “pseudovirus neutralization IC50” value [6] was > 10 µg/mL and the “pseudovirus neutralization IC50” value [7] was 0.0015 µg/mL.

B4: BD57-0388 (protein)
chain 1: QVQLVQSGAEVKRPGASVTVSCKASGYSFSSYAISWLRQAPEQGPEWMGWINTHSGDTNFAQKFQGRVTMTTDTSTSTAYMALRSLTSDDTAVYYCARGVLERFMNMIVAPGSFDQWGQGTLVTVSS
chain 2: DIQMTQSPSTLSASVGDRVTITCRASQSISDWLAWYQQKPGKAPKLLIYKASSFESGVPSRFRGSGSGTEFTLTISSLQPDDFATYYCQQYKTSTYTFGQGTRLEIK
In the case of B4, the “pseudovirus neutralization IC50” value [1] is reported as > 10 µg/mL, the “pseudovirus neutralization IC50” value [2] is reported as > 10 µg/mL and the “pseudovirus neutralization IC50” value [3] is reported as > 10 µg/mL. For the same binder, the “pseudovirus neutralization IC50” value [4] was > 10 µg/mL, the “pseudovirus neutralization IC50” value [5] was > 10 µg/mL and the “pseudovirus neutralization IC50” value [6] was > 10 µg/mL. The “pseudovirus neutralization IC50” value [7] was > 10 µg/mL.

B5: BD57-0387 (protein)
chain 1: EVQLVQSGAEVKKPGESLRISCKGSGYSFTTYWIGWVRQMPGKGLEWMGIIYPGDSETTYSPTFRGQVTISADKSINTAYLQWSSLTASDTAMYYCARRSGSGSFPSLDYWGQGTPVTVSS
chain 2: DIQMTQSPSSLSASVGDRITITCRASQSISSYLNWYQQKPGKVPQLLIYGASSLQSGVPSRFRGSGSGTDFTLTIRSLQPEDFATYYCQQSYSTMALTFGGGTKVEIK
With B5 the “pseudovirus neutralization IC50” value [1] was 1.44 µg/mL, the “pseudovirus neutralization IC50” value [2] was 1.93 µg/mL and the “pseudovirus neutralization IC50” value [3] was 1.65 µg/mL. For the same binder, the “pseudovirus neutralization IC50” value [4] was > 10 µg/mL, the “pseudovirus neutralization IC50” value [5] was > 10 µg/mL and the “pseudovirus neutralization IC50” value [6] was > 10 µg/mL. The “pseudovirus neutralization IC50” value [7] was > 10 µg/mL.

B6: BD57-0376 (protein)
chain 1: EVQLVESGGGLVQPGRSLRLSCAASGFTFDDYAMHWVRQAPGKGLEWVSGISWDSGIIAYADSVKGRFTISRDNAKNSLYLQMNSLRAEDTAFYYCAKGEKQQLINDPLDYWGQGTLVTVSS
chain 2: SYVLTQPPSVSVAPGKTARITCGGDSIGSKNVHWYQQKPGQAPVLVIYYDSDRPSGIPERFSGSNSGNTATLTISRVEAGDEADYYCQVWDPHVVFGGGTKLTVL
In the case of B6, the “pseudovirus neutralization IC50” value [1] is reported as > 10 µg/mL, the “pseudovirus neutralization IC50” value [2] is reported as > 10 µg/mL and the “pseudovirus neutralization IC50” value [3] is reported as > 10 µg/mL. For the same binder, the “pseudovirus neutralization IC50” value [4] was > 10 µg/mL, the “pseudovirus neutralization IC50” value [5] was > 10 µg/mL and the “pseudovirus neutralization IC50” value [6] was > 10 µg/mL. For the same binder, the “pseudovirus neutralization IC50” value [7] was 3.17 µg/mL.

B7: BD57-0377 (protein)
chain 1: EVQLVESGGGLVQPGGSLRLSCAASGFTFSSYDMHWVRQGTGKGLEWVSAIGTTGYRYYPDSVKGRFTISRENAKNSVHLQMNSLRAGDTAVYYCARVGYDGSGFYSYFDLWGQGTLVTVSS
chain 2: DIQMTQSPSSLSASVGDRVTITCRASQTIGGYLNWYQQKPGKAPKLLIYAASRLQSGVPSRFSGSGSGTDFTLTISSLQPEDFATYTCQQSYSTSALTFGGGTKVEIK
In the case of B7, the “pseudovirus neutralization IC50” value [1] is reported as > 10 µg/mL, the “pseudovirus neutralization IC50” value [2] is reported as > 10 µg/mL and the “pseudovirus neutralization IC50” value [3] is reported as > 10 µg/mL. For the same binder, the “pseudovirus neutralization IC50” value [4] was > 10 µg/mL, the “pseudovirus neutralization IC50” value [5] was > 10 µg/mL and the “pseudovirus neutralization IC50” value [6] was > 10 µg/mL. For the same binder, the “pseudovirus neutralization IC50” value [7] was > 10 µg/mL.
